The record followed here is publication PMC12021911 (Frontiers in Microbiology, 2025).

This data set in a line: general procedure: Fmoc solid-phase peptide synthesis; Fmoc-Rink amide AM resin (100–200 mesh, loading capacity 0.62 mmol/g); DIC/HOBT (8 eq.) in DMF. The settings on record: whole synthesis.

For “LLGDFFRKSKEKIGKEFKRIVQRIKDFLRNLVPRTES-OH”, the “purity (crude or final not stated)” value turned out to be 95.30%.
